## Primary screen of a compound library

The values are deposited in ChEMBL (CHEMBL3988442, “University of Dundee, Small-Polar-MMV Screening Library” (2021)).

Mtb glucose medium: 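Whole-cell growth test on Mycobacterium tuberculosis, read after 3 days in glucose-containing 7H9 medium; the read-out is not stated. Tested at 50 µM. The record gives no direction; compounds that gave an IC50 in retests scored well above the rest, so higher reads as more growth inhibition. About 69,000 compounds were tested under these conditions; 1.1% (about 760) showed 50% or more at least once.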
Mtb cholesterol medium: 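Phenotypic screen: M. tuberculosis growth, cholesterol and DPPC medium, 4 days; the read-out is not stated. Compounds at 50 µM. Higher reads as more growth inhibition (inferred: compounds with an IC50 in retests scored well above the rest). Of about 69,000 compounds tested this way, about 370 (0.54%) reached 50% or more in at least one test.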

Each number is a percent effect as filed. The controls that fix the scale are not given in the record; negative values are as filed. The entries come from a sample that favours strong results. Two or more numbers in one place are separate tests of the same structure; such repeats can differ widely. A dash means the value is not listed here; it may have been measured.

| # | compound | Mtb glucose medium | Mtb cholesterol medium |
|---|---|---|---|
| 1 | `O=C(NCCSC1CCCC1)c1cnccn1` | -23.26% | -13.46% |
| 2 | `O=C1CCc2cc(-c3csc(CCN4CCOC4=O)n3)ccc2N1` | 12% | - |
| 3 | `O=C(c1ccc(Cl)o1)N1CCCN(Cc2cscn2)CC1` | - | -5.198% |
| 4 | `CC(=O)N(c1ccc(F)cc1)c1nc(CN2CCCC2C(C)C)cs1` (configuration not stated) | 57.76% | - |
| 5 | `COc1ccc(OC)c(-c2nc(CN(C)Cc3nncn3C)c(C)o2)c1` | -7.102% & -40.07% | - |
| 6 | `O=c1c2sccc2nc2n1CCN(Cc1cccs1)CC2` | 28.36% | 5.917% |
| 7 | `CCc1ncc(C(=O)N2CCN(c3nc(C)cc(OC)n3)CC2)s1` | -1.668% & 14.2% | - |
| 8 | `CN(Cc1nc(N)c2ccccc2n1)C1CCCN(c2cccnn2)C1` (configuration not stated) | 50.84% | - |
| 9 | `O=C(CN1CCCCCC1)NCCSc1cnn[nH]1` | 17.18% | 11.72% |
| 10 | `OCC1(O)CCN(Cc2ccc(-c3cc[nH]n3)s2)CC1` | 13.13% & 1.735% | - |
| 11 | `Cc1ccc(C(=O)Nc2cn[nH]c2)cn1` | -22.09% | -31.4% |
| 12 | `CCc1cccc2cc(CN)c(=O)[nH]c12` | -10.97% | 2.547% & -14.09% |
| 13 | `CC(=O)NS(=O)(=O)c1ccc(F)c(C(F)(F)F)c1` | 15.15% & 0.9847% | - |
| 14 | `CC(CNC(=O)N1CCSCC1)Cc1cccs1` (configuration not stated) | 20.57% | 29.26% & 19.11% |
| 15 | `COc1ccccc1C(=O)Nc1cc(CC(C)C)nn1C` | 24.36% | - |
| 16 | `COc1ccc(CCn2cnnc2[S+](C)[O-])cc1` (configuration not stated) | 17.74% | -9.082% |
| 17 | `Cc1cnn(CC2CN(c3ncnc4c3CCC4)CCO2)c1` (configuration not stated) | 20.36% & 7.355% | - |
| 18 | `CC1CCC(O)(CSc2nnnn2C)CC1` (configuration not stated) | 8.03% | - |
| 19 | `CCc1nc(CNc2ccc(F)cc2I)no1` | 61.19% | - |
| 20 | `CCn1ncc(NC(=O)c2cc(C3CC3)nc3c2c(C)nn3C)c1C` | -13.24% | - |
| 21 | `Fc1cccc(-n2cccn2)c1NCc1nnc(C2CC2)o1` | - | -18.22% |
| 22 | `NC(=O)c1cnc(NC2CCC(c3ccccc3)CC2)c(Cl)c1` (configuration not stated) | 4.792% & 21.27% | 7.568% |
| 23 | `Cc1cc(C)cc(-n2ncc3c2CCCC3N)c1` (configuration not stated) | 38.65% | - |
| 24 | `COCc1noc(-c2ccc(N(C)Cc3nccs3)nc2)n1` | - | 6.647% & 19.35% |
| 25 | `CCc1ccc(CN(C)C(=O)c2ccc(CSc3nnc[nH]3)o2)nc1` | -10.09% & 0.01054% | -0.2548% |
| 26 | `O=C(O)C(F)(F)F.[H][C@@]12CN(c3cccnc3)CC[C@]1([H])CN(c1cccc(F)c1)C2` | 34.96% | - |
| 27 | `COc1ccc(NC(C)C(=O)NCCc2cccs2)cc1F` (configuration not stated) | - | -20.91% |
| 28 | `CCCC(C)N(C)Cc1nnc(-c2ccco2)o1` (configuration not stated) | - | 25.75% |
| 29 | `c1cc(N2CCOCC(Cc3ccc4[nH]ccc4c3)C2)ncn1` (configuration not stated) | 4.125% | - |
| 30 | `Cc1nc2c(c(NCC3Cc4ccccc4CN3C)n1)CCNCC2` (configuration not stated) | 21.29% | - |
| 31 | `COc1ccc(CNCC2CCN(c3ccccc3OC)C2)cc1O` (configuration not stated) | 32.84% & 6.017% | - |
| 32 | `COCCN1CCC(CN(C)c2ncnc3c2c(C)nn3C)C1` (configuration not stated) | - | -13.18% |
| 33 | `CN1CCC(Cc2cc(Nc3ccccn3)ncn2)CC1` | - | -13.94% |
| 34 | `CC(C)C[C@H](N)c1nnc(SCC(N)=O)o1.Cl` | -1.688% & -22.77% | -41.6% |
| 35 | `Cc1ccc(-c2noc(C(C)(C)NS(C)(=O)=O)n2)cc1F` | 31% | -6.312% |
| 36 | `COc1ccc(Cl)c(NCC(=O)NCC(=O)N2CCCC2)c1` | 27.63% | - |
| 37 | `CNCCCNc1nc(C2CCCC2)nc2c1cnn2C` | -3.649% | -2.748% & -4.28% |
| 38 | `NCC(c1ccccc1)N1CCc2sccc2C1` (configuration not stated) | 16.57% & 17.5% | 11.32% |
| 39 | `CC1(C(=O)Nc2ccc(F)c(-n3cccc3)c2)CCOCC1` | 25.34% | - |
| 40 | `N#Cc1ccc(NCc2cccc(OCC3CCCO3)c2)nc1` (configuration not stated) | 34.32% | - |
| 41 | `O=S(=O)(NCCCN1CC=CC1)c1cncc(Cl)c1` | 12.31% | - |
| 42 | `N#Cc1ccc(CN2CCN(C(=O)c3cc(C4CC4)[nH]n3)CC2)cc1` | 34.05% | - |
| 43 | `CCC(CCO)NS(=O)(=O)c1ccc(Br)cn1` (configuration not stated) | 14.27% | - |
| 44 | `O=C(O)C(F)(F)F.O=C(O)C(F)(F)F.[H][C@]12C[C@@H](CN3CCCC3)N(C)[C@@]1([H])CCN(C(=O)c1occc1C)C2` | - | -1.779% |
| 45 | `CC(CCNC(=O)NCCc1ccncc1)c1ccccc1` (configuration not stated) | 1.093% & 18.26% | - |
| 46 | `c1cncc(-c2nc(C3CC3)ncc2-c2ccnc(N3CCCC3)n2)c1` | 56.91% | - |
| 47 | `Cc1csc(N2CCN(C(=O)c3ccc(C)s3)CC2)n1` | 76.71% | - |
| 48 | `Cc1cnc2c(S(=O)(=O)NC3CCS(=O)(=O)C3)cccc2c1` (configuration not stated) | 21.71% | - |
| 49 | `O=C1Nc2ccccc2CN(CC2CCCC2)C12CCNC2` (configuration not stated) | 70.11% | 57.76% |
| 50 | `Cc1cc(C(O)CCNC(=O)c2ccc(Cl)s2)c(C)o1` (configuration not stated) | 52.83% | - |
| 51 | `CNC(=O)CCCNc1cc(C)nc2cc(C)nn12` | -0.4528% | -1.246% |
| 52 | `CC(C)(C)c1cc(C(=O)NCCN2CCCS2(=O)=O)[nH]n1` | -1.452% | -9.474% |
| 53 | `Cc1cc(C2CCC2)nc(N(C)Cc2cnccn2)n1` | 21.75% | - |
| 54 | `CC(Cn1cc(Br)cn1)C(=O)Nc1ccn(C)n1` (configuration not stated) | -51.29% | - |
| 55 | `FC1(F)CCN(Cc2cccnc2)CC12CCN(c1ccccc1)C2.O=C(O)C(F)(F)F.O=C(O)C(F)(F)F.O=C(O)C(F)(F)F` (configuration not stated) | 79.68% | 69.67% |
| 56 | `CC(C)Oc1ccc(CN2CCCC(N3CCOCC3)C2)cc1CO` (configuration not stated) | -5.498% & 1.078% | - |
| 57 | `NC(=O)C1CCN(C(=O)Cc2ccc(Cl)c(Cl)c2)CC1` | -14.81% | - |
| 58 | `CC1(c2ccccc2)CCCN(Cc2cncn2C2CC2)C1` (configuration not stated) | 30.22% | 29.33% |
| 59 | `COc1cc(NC(=O)NCc2nccn2C)ccc1Br` | 1.961% | - |
| 60 | `N#Cc1ccc(NCCNc2ccc(C(F)(F)F)cn2)nc1` | 25.69% | 32.71% |
| 61 | `CCCc1ccc2oc(C(=O)N3CCCN(C)CC3)c(C)c2c1` | 48.7% | 38.69% |
| 62 | `COCCN1CC=C(c2cccc(OC)c2)CC1` | 3.874% | 10.76% |
| 63 | `COc1c(Br)cccc1CCNC(=O)c1ccon1` | 23.21% & 45.82% | - |
| 64 | `O=C(O)C(F)(F)F.O=C(c1c[nH]cn1)N1CCC(F)(F)C2(CCN(c3ncccn3)C2)C1` (configuration not stated) | -4.421% & -4.399% | - |
| 65 | `NC(=O)NC1CCN(Cc2ccc3c(c2)CCC3)CC1` | -23.61% & 3.196% | - |
| 66 | `COCCC(=O)N1CCc2cc(Cl)cc(Cl)c2C1` | 55.21% | - |
| 67 | `COCCN1CCC(CNC(=O)c2cc(C)cc(C)c2)C1` (configuration not stated) | 37.33% | 18.01% |
| 68 | `Cc1cc(CN2CCN(C(=O)CCc3cccc(F)c3F)CC2)on1` | 31.96% | - |
| 69 | `O=c1[nH]nc(CNCc2ccc(OC34CCCN(CC3)C4)cc2)[nH]1` (configuration not stated) | 4.117% | 15.2% |
| 70 | `COCCOCC(=O)N1CCc2cc(Cl)cc(Cl)c2C1` | 25.03% | - |
| 71 | `O=C(O)C(F)(F)F.O=C1N(Cc2cccnc2)CCC12CCCN(c1ncc(F)cn1)C2` (configuration not stated) | - | -8.327% |